US20220153815A1, “Compounds specific to coronavirus s protein and uses thereof” (ADAGIO THERAPEUTICS, published 2022)

Biological target: SEC-purified SARS-CoV-2 RBD-SD1 (SARS-CoV-2, UniProt P0DTC2 319-591)
Assay: SPR (Biacore X100), RBD-SD1 on NiNTA chip, Fab injected

| Binder | binding result |
| --- | --- |
| ADI-58120 Fab (Fab, V domains shown) VH: not shown VL: not shown | binds |
| ADI-58126 Fab (Fab, V domains shown) VH: not shown VL: not shown | binds |
